Compound potency records, mixed from different reports. Data source: NIAID ChemDB in PubChem.

Shared fields: cytotoxicity tests; cells: HepG2.2.15; endpoint: CC50

CCn is the concentration with n% toxicity to the cells. An empty or dashed field is not shown. Lines come from different laboratories, so protocols vary.

| structure | read by | value |
|---|---|---|
| CCOC(=O)c1c(CSc2ccccc2)nc2c(O)c(CN3CCN(C)CC3)c(Br)cn12 | MTT | 31.5 µM |
| COc1ccc(C(=O)N(C)CC(=O)Nc2ccc(Cl)cc2Cl)cc1 | MTS | 311 µM |
| Cc1cc(NC(=O)c2cc(-c3ccccc3)nc3ccccc23)ccc1F |  | >100 µM |
| C[C@H](C[C@H](OC(=O)C1CC1)[C@@H](OC(=O)C1CC1)C(C)(C)OC(=O)C1CC1)C1=C2C[C@H](OC(=O)C3CC3)[C@H]3[C@@]4(C)CCC(=O)C(C)(C)[C@@H]4CC[C@]3(C)[C@@]2(C)CC1 |  | >2100 µM |
| CCOC(=O)C1=C(CN2CC(F)(F)[C@@H]3[C@H]2CON3C[C@H](OC)C(C)(C)C(=O)O)NC(c2nccs2)=N[C@H]1c1ccc(F)c(F)c1F | WST / absorbance | >100 µM |
| CC(=O)OC(C)(C)CCC(=O)[C@](C)(O)C1[C@H](O)C[C@@]2(C)[C@@H]3C[C@@H](O)[C@]4(OC(=O)c5cccc(Cl)c5)[C@@H](C[C@H](O)[C@@H](O)C4(C)C)[C@]3(C)C(=O)C[C@]12C |  | 366.5 µM |
| OC[C@H]1OC2OC[C@H](c3ccc(O)c(O)c3)OC2[C@@H](O[C@@H]2OC[C@](O)(CO)[C@H]2O)[C@@H]1O | MTT | >2000 µM |
| CCOC(=O)c1c(CSc2ccc(Br)cc2)nc2c(O)c(CN3CCOCC3)c(Br)cn12 | MTT | 8.2 µM |
| CC(=O)O[C@H]1C[C@@H]2C(=CC[C@@H]3[C@@]2(C)C(=O)C[C@]2(C)C([C@@](C)(O)C(=O)CCC(C)(C)OC(C)=O)[C@H](OC(C)=O)C[C@@]32C)C(C)(C)[C@@H]1OC(C)=O |  | >807.1 µM |
| CC1O[C@@H]2C[C@H]3[C@H]4C5=C(C(=O)OCC5=C[C@]13C1=C2C(=O)OCC1)[C@@H](O)[C@]12C(=O)OCCC1=C(C=O)[C@@H](C)O[C@H]42 | MTT | >1360 µM |
| COCC(=O)O[C@H]1C[C@H]2[C@]3(C)C(=O)C[C@]4(C)C([C@@](C)(O)C(=O)CCC(C)(C)OC(C)=O)[C@H](OC(=O)COC)C[C@@]4(C)[C@@H]3C[C@H]3O[C@]32C(C)(C)[C@@H]1OC(=O)COC |  | >1110 µM |
| CCOC(=O)C1=C(CN2CC(F)(F)[C@@H]3[C@H]2CON3CCC(C)(F)C(=O)O)NC(c2nccs2)=N[C@H]1c1cccc(F)c1C | WST / absorbance | >100 µM |
| CCCC(=O)O[C@@H](C[C@@H](C)[C@]12CC[C@@]3(C)[C@@]1(C[C@H](OC(=O)CCC)[C@H]1[C@@]4(C)CCC(=O)C(C)(C)[C@@H]4CC[C@@]13C)O2)[C@@H](OC(=O)CCC)C(C)(C)OC(=O)CCC |  | >1900 µM |
| COC(=O)C1=C(CN2CC(F)(F)[C@@H]3[C@H]2CON3CC(F)(F)C(C)(C)C(=O)O)NC(c2nccs2)=N[C@H]1c1ccc(F)c(F)c1C | WST / absorbance | >12.5 µM |
| COCC(=O)O[C@H]1C[C@H]2[C@]3(C)C(=O)C[C@]4(C)C([C@@](C)(O)C(=O)CCC(C)(C)OC(C)=O)[C@H](OC(=O)COC)C[C@@]4(C)[C@@H]3C[C@@H](O)[C@@]2(OC(=O)c2cccc(Cl)c2)C(C)(C)[C@@H]1OC(=O)COC |  | >1740 µM |
| O=C(CNC(=O)c1ccccn1)Nc1ccc(Cl)nc1Cl | MTS | 227 µM |
| CCOC(=O)C1=C(CN2CC(F)(F)[C@H]3[C@@H]2CCN3C[C@H](O)C(C)(C)C(=O)O)NC(c2nccs2)=N[C@@H]1c1cccc(F)c1F | WST / absorbance | >25 µM |
| Cc1cccc(NC(=O)c2c(C)noc2C)c1 |  | >100 µM |
| CCOC(=O)C1=C(CN2CC(F)(F)[C@H]3[C@@H]2CCN3CC[C@@](C)(O)C(=O)O)NC(c2nccs2)=N[C@H]1c1cccc(F)c1C | WST / absorbance | >50 µM |
| C[C@H](C[C@H](OC(=O)[C@@H]1CCC(=O)O1)[C@@H](OC(=O)[C@@H]1CCC(=O)O1)C(C)(C)OC(=O)[C@@H]1CCC(=O)O1)C1=C2C[C@H](OC(=O)[C@@H]3CCC(=O)O3)[C@H]3[C@@]4(C)CCC(=O)C(C)(C)[C@@H]4CC[C@]3(C)[C@@]2(C)CC1 |  | >1600 µM |
| CCOC(=O)c1c(CSc2ccccc2)nc2c(O)c(CN3CCCC3)c(Br)cn12 | MTT | 27.8 µM |
| C[C@@H]1O[C@@H](O[C@@H]2C3O[C@@H](c4ccc(O)c(O)c4)COC3O[C@H](CO)[C@H]2O)[C@H](O)[C@H](O)[C@H]1O | MTT | >2000 µM |
| CC(=O)O[C@@H]1[C@@H](O)C[C@@H]2C(=CC[C@@H]3[C@@]2(C)C(=O)C[C@]2(C)C([C@@](C)(O)C(=O)CCC(C)(C)OC(C)=O)[C@H](O)C[C@@]32C)C1(C)C |  | 253.5 µM |
| COCC(=O)OC(C)(C)[C@H](OC(C)=O)[C@H](C[C@@H](C)C1=C2C[C@H](OC(C)=O)[C@H]3[C@@]4(C)CCC(=O)C(C)(C)[C@@H]4CC[C@]3(C)[C@@]2(C)CC1)OC(C)=O |  | >920 µM |
| C[C@H](Cn1cnc2c(N)ncnc21)OCP(=O)(O)O |  | >1740 µM |
| CN(CC(=O)Nc1ccc(Cl)cc1Cl)C(=O)c1ccccn1 | MTS | 276 µM |
| CCCCCCCC(=O)O[C@@H](C[C@@H](C)C1=C2C[C@H](OC(=O)CCCCCCC)[C@H]3[C@@]4(C)CCC(=O)C(C)(C)[C@@H]4CC[C@]3(C)[C@@]2(C)CC1)[C@@H](OC(=O)CCCCCCC)C(C)(C)OC(=O)CCCCCCC |  | >1600 µM |
| CCOC(=O)c1c(CSc2ccc(Cl)cc2)nc2c(O)c(CN3CCN(C)CC3)c(Br)cn12 | MTT | 19.4 µM |
| CCOCC(=O)O[C@H]1C[C@H]2[C@]3(C)C(=O)C[C@]4(C)C([C@@](C)(O)C(=O)CCC(C)(C)OC(C)=O)[C@H](OC(=O)COCC)C[C@@]4(C)[C@@H]3C[C@@H](O)[C@@]2(OC(=O)c2cccc(Cl)c2)C(C)(C)[C@@H]1OC(=O)COCC |  | >710.4 µM |
| CCOC(=O)c1c(CSc2ccc(C)cc2)nc2c(O)c(CN3CCOCC3)c(Br)cn12 | MTT | 12.1 µM |
| CCCC(=O)O[C@@H]1[C@@H](O)C[C@@H]2C(=CC[C@@H]3[C@@]2(C)C(=O)C[C@]2(C)C([C@@](C)(O)C(=O)CCC(C)(C)OC(C)=O)[C@H](O)C[C@@]32C)C1(C)C |  | 6.3 µM |
| COC(=O)[C@]12C3=C([C@H](C)O[C@H]1[C@@H]1C4=C(C(=O)OCC4=C[C@@]45C6=C(C(=O)OCC6)[C@@H](C[C@@H]14)OC5C)[C@H]2O)[C@@H](O)OCC3 | MTT | >830 µM |
| CCOC(=O)c1c(CSc2ccc(Br)cc2)nc2c(O)c(CN(C)C)c(Br)cn12 | MTT | 126.2 µM |

Again, the opening 3 rows:

structure | read by | value
CCOC(=O)c1c(CSc2ccccc2)nc2c(O)c(CN3CCN(C)CC3)c(Br)cn12 | MTT | 31.5 µM
COc1ccc(C(=O)N(C)CC(=O)Nc2ccc(Cl)cc2Cl)cc1 | MTS | 311 µM
Cc1cc(NC(=O)c2cc(-c3ccccc3)nc3ccccc23)ccc1F |  | >100 µM